A mixed list of measured activities; the numbers were collected in NIAID ChemDB.

Shared fields: whole-cell or culture tests; species: Mycobacterium bovis BCG

An empty or dashed field is not shown. Rows are shuffled and stem from different studies. A number after MIC or MFC names an inhibition level or a share of isolates. Zone: diameter of growth inhibition. ECn: concentration that inhibits the pathogen or its effect by n%.

smiles,endpoint,conditions,read by,dose,strain or isolate,value
O=C(O)Cc1ccc2[nH]c3ccc(F)cc3c2c1,MIC99,,resazurin / visual reading / absorbance,,,125 µg/mL
CCCc1c2c([nH]c(=O)c1C)C(=O)c1[nH]c(=O)c(C)c(CCC)c1C2=O,MIC90,,resazurin / fluorescence,,ATCC 35734,0.12 µg/mL
Clc1ccc2[nH]c3ccccc3c2c1,MIC99,,resazurin / visual reading / absorbance,,,>500 µg/mL
[O-]c1ccccc1CNCCCCCCNCCCCCCCCNCCCCCCNCc1ccccc1[O-],MIC,,,,Pasteur,1.56 µM
O=C(O)c1cc(C(F)(F)F)cc2c(=O)nc(N3CCN(CC4CCCCC4)CC3)sc12,MIC99,,resazurin,,BN2,>100 µg/mL
O=S(=O)(c1ccccc1)n1cc(/C=N/Nc2nncs2)c2ccccc21,MIC100,48 h,broth dilution,,1173P2,250 µg/mL
COC(=O)Cc1ccc2[nH]c3ccc(OC)cc3c2c1,MIC99,,resazurin / visual reading / absorbance,,,31.3 µg/mL
NC(=O)c1c(NC(=O)C2CC2)sc2cc(O)c(Br)cc12,MIC,,resazurin / absorbance,,,>100 µM
C#CCCCCCC,MIC,48 h,resazurin,,1173P2,125 µg/mL
CCn1cc(C(=O)O)c(=O)c2cc(F)c(N3CCNC(C)C3)c(F)c21,MIC,,,,Pasteur,1.56 µM
CO[C@H]1/C=C/O[C@@]2(C)Oc3c(C)c(O)c4c(O)c(c(/C=N/N5CCN(C)CC5)c(O)c4c3C2=O)NC(=O)/C(C)=C\C=C\[C@H](C)[C@H](O)[C@@H](C)[C@@H](O)[C@@H](C)[C@H](OC(C)=O)[C@@H]1C,MIC,,resazurin,,Pasteur,0.0019 µg/mL
NNC(=O)c1ccncc1,EC50,,broth dilution,,BCG,0.13 µM
C=C(C)O[C@H]1C[C@@]2(C)[C@@H](C[C@@H](O)[C@H]3[C@@]4(C)CC[C@@H](O)[C@@H](C)[C@@H]4CC[C@@]32C)/C1=C(\CCC=C(C)C)C(=O)[O-],MIC,,,,Pasteur,3.125 µM
CS(C)=O,MIC100,24 h,broth dilution,,1173P2,6.5 µg/mL
CC(C(=O)O)c1ccc2c(c1)[nH]c1ccc(-c3ccccc3)cc12,MIC99,,resazurin / visual reading / absorbance,,,62.5 µg/mL
C[C@H]1COC2(CCN(c3nc(=O)c4cc(C(F)(F)F)cc([N+](=O)[O-])c4s3)CC2)O1,MIC,,resazurin / fluorescence,,ATCC 35734,<0.02 µg/mL
COc1ccc(-c2ccc3[nH]c4cc(C(C)C(=O)O)ccc4c3c2)cc1,MIC99,,resazurin / visual reading / absorbance,,,31.3 µg/mL
OCC#CCO,MIC,24 h,resazurin,,1173P2,125 µg/mL
CC(C)(C)c1ccc(CCOc2ncnc3ccccc23)cc1,MIC50,,luminescence,,,>20 µM
CCOC(=O)C#CC(=O)OCC,MIC,24 h,resazurin,,1173P2,7.75 µg/mL
C(=N\Nc1nncs1)/c1c[nH]c2ccccc12,MIC100,24 h,broth dilution,,1173P2,7.81 µg/mL
C[C@H]1COC2(CCN(c3nc(=O)c4cc(C(F)(F)F)cc(C(=O)O)c4s3)CC2)O1,MIC99,,resazurin,,Pasteur,0.001 µg/mL
CO[C@@H]1C[C@@H](C[C@H]2CC[C@H](C)[C@H]([C@@H](C)C(=O)O)O2)O[C@]2(O[C@](C)([C@H]3CC[C@@](C)([C@@H]4O[C@@H]([C@H]5O[C@@](O)(CO)[C@H](C)C[C@@H]5C)C[C@@H]4C)O3)C[C@H]2C)[C@@H]1C,MIC,,resazurin,,1173P2,0.625 µg/mL
O=C(N[C@H]([C@H](O)CNCc1cccc(I)c1)C(F)(F)c1ccccc1)OCc1ccccc1,zone,,agar diffusion,50 µg/disc,Tice,0 mm
N#Cc1ccc(Cn2cc(/C=N/NC(=S)NN)c3ccccc32)cc1,MIC100,48 h,broth dilution,,1173P2,>500 µg/mL
FC(F)(F)c1ccc(Oc2ccc(Nc3ncnc4cc[nH]c34)cc2)cc1,MIC50,,luminescence,,,>20 µM
Cn1cc(/C=N/NC(=S)NN)c2ccccc21,MIC100,48 h,broth dilution,,1173P2,>500 µg/mL
O=C(O)C(Cc1ccc(I)cc1)Nc1nc(-c2ccc(Cl)c(Cl)c2)cs1,MIC95,,agar,,,>50 µg/mL
C[N+](C)(CCCCCC[N+](C)(C)CCCN1C(=O)c2cccc3cccc(c23)C1=O)CCCN1C(=O)c2cccc3cccc(c23)C1=O,MIC,,,,Pasteur,12.5 µM
C(=N\Nc1nncs1)/c1cn(CC2CCCCC2)c2ccccc12,MIC100,48 h,broth dilution,,1173P2,15.63 µg/mL
CC(C)=CCC/C(C)=C/Cn1cc(CNC2CCCCCC2)c2cc(F)ccc21,MIC90,,turbidity,,,>50 µM
O=C(O)c1c[nH]c2cc(OCc3ccccc3)ccc2c1=O,MIC,,,,Pasteur,>100 µM
C(=N\Nc1nncs1)/c1cn(CC2CC2)c2ccccc12,MIC100,48 h,broth dilution,,1173P2,7.81 µg/mL
CO[C@H]1/C=C/O[C@@]2(C)Oc3c(C)c(O)c4c(O)c(c(/C=N/N5CCN(C)CC5)c(O)c4c3C2=O)NC(=O)/C(C)=C\C=C\[C@H](C)[C@H](O)[C@@H](C)[C@@H](O)[C@@H](C)[C@H](OC(C)=O)[C@@H]1C,MIC,,broth dilution / visual reading,,BCG,0.001 µg/mL